Pooled drug test results. Numbers come from NIAID ChemDB, via PubChem.

All rows: growth or infection tests; organism: HIV-1; endpoint: fold resistance

Lines come from different laboratories, so protocols vary. Fold resistance has wild type as its base. Blank or dashed fields: not listed here.

Cc1cn([C@@H]2O[C@H](CO[Si](C)(C)C(C)(C)C)[C@@]3(OS(=O)(=O)C=C3N)[C@H]2O[Si](C)(C)C(C)(C)C)c(=O)[nH]c1=O ; strain: UC781-RS(RT-Y181C ; mutations: RT-Y181C ; result: >200
Cc1ccnc2c1NC(=O)c1cccnc1N2C1CC1 ; strain: NL4-3 ; mutations: AMD3100-resistant ; result: 12
Cc1cn([C@@H]2O[C@H](CO[Si](C)(C)C(C)(C)C)C3(OS(=O)(=O)C=C3N)[C@H]2O[Si](C)(C)C(C)(C)C)c(=O)n(C)c1=O ; strain: TSAO-m3T-resistant (RT E138K) ; mutations: RT-E138K ; cells: CEM ; result: >1600
CC(C)(C)NC(=O)[C@H]1N(C(=O)[C@@H](O)[C@H](Cc2ccccc2)NC(=O)[C@H](CC(N)=O)NC(=O)COc2cccc(Nc3ccccc3)c2)CSC1(C)C ; strain: IIIB ; mutations: PR-V32I L33F K45I F53L A71V I84V ; cells: CEM + CEM-SS ; result: 1
Cc1cn([C@H]2C[C@H](N=[N+]=[N-])[C@@H](CO)O2)c(=O)[nH]c1=O ; mutations: INTG-T66I ; result: 1
Nc1nc2c(ncn2[C@H]2CO[C@@H](CO)O2)c(=O)[nH]1 ; mutations: RT-K65R ; result: 7
CC(C)CN(C[C@@H](O)[C@H](Cc1ccccc1)NC(=O)[C@H](CC(N)=O)NC(=O)c1ccc2ccccc2n1)C(=O)NC(C)(C)C ; strain: RF ; mutations: PR-G48V I54V A71T V82A ; cells: MT-2 ; result: 33.8
O=C1Nc2ccc(Cl)cc2[C@@](C#CC2CC2)(C(F)(F)F)N1 ; mutations: RT-K103N ; result: 5
Cc1cc(S(N)(=O)=O)ccc1NC(=O)COc1ccccc1C(=O)c1cc(Cl)cc(C#N)c1 ; strain: HXB2 (RT V106I E138K P236L) Recombinant ; mutations: RT-V106I E138K P236L ; result: 175
c1cc(CN2CCCNCCNCCCNCC2)ccc1CN1CCCNCCNCCCNCC1 ; strain: NL4-3 ; mutations: DS-resistant ; result: 1
Nc1ccn([C@H]2CC[C@@H](CO)O2)c(=O)n1 ; strain: NL4-3 ; mutations: INTG-G140S ; cells: MT-2 ; result: 0.25
CC(C)=CCN1Cc2cccc3[nH]c(=O)n(c23)CC1C ; strain: UC781-RS(RT-Y181C ; mutations: RT-Y181C ; result: 118
Nc1nc(=O)n([C@@H]2CC[C@H](CO)O2)cc1F ; strain: RTMC (RT D67N K70R T215F K219Q) ; mutations: RT-D67N K70R T215F K219Q ; cells: HT4 + HT4 LacZ-1 ; result: 2.5
O=S(=O)(c1ccccc1)c1ccccc1 ; strain: UC781-RS(RT-Y181C ; mutations: RT-Y181C ; result: >16.3
CC(C)CN(C[C@@H](O)[C@H](Cc1ccccc1)NC(=O)O[C@H]1CCOC1)S(=O)(=O)c1ccc(N)cc1 ; strain: NL4-3 ; mutations: L23I E34Q K43I M46I I50L G51A L63P A71V V82A T91A ATV resistant ; cells: MT-4 ; result: >13
O=C(O)P(=O)(O)O ; strain: HX88C (RT-W88C) ; mutations: RT-W88C ; cells: HT4LACZ-1 + HT4 LacZ-1 ; result: 1.7
CC(C)(C)NC(=O)[C@@H]1CN(C(C)(C)c2cc3cnccc3o2)CCN1C[C@@H](O)C[C@@H](Cc1ccccc1)C(=O)N[C@H]1c2ccccc2C[C@H]1O ; strain: V-18C(PR-L10I M36I S37D M46I R57K LK63P A71V G73S I84V L90M I93L) ; mutations: PR-L10I M36I S37D M46I R57K LK63P A71V G73S I84V L90M I93L ; result: >66.7
S=C(NCCC1=CCCCC1)Nc1ccc(Cl)cn1 ; strain: RT-MDR(RT-V106A) ; mutations: RT-V106A ; cells: PBMC ; result: 0.333
C#C[C@]1(CO)O[C@@H](n2cnc3c(N)nc(F)nc32)C[C@@H]1O ; mutations: RT-M184V ; result: 15.5
Cc1cn([C@H]2C[C@H](N=[N+]=[N-])[C@@H](CO)O2)c(=O)[nH]c1=O ; strain: HXB2D (RT D67N K70R T215Y) ; mutations: RT-D67N K70R T215Y ; cells: MT-2 ; result: 24.4
Nc1nc2c(ncn2[C@H]2CO[C@@H](CO)O2)c(=O)[nH]1 ; strain: Clinical isolate ; mutations: RT-K103N M184V ; result: ~0.455
Cc1ccnc2c1NC(=O)c1cccnc1N2C1CC1 ; strain: BCF11 ; mutations: RT-A98G K103R ; cells: PBMC ; result: 5.9
Cn1c2ccccc2c2c1cc(C#N)c(=O)n2-c1ccc([N+](=O)[O-])cc1 ; strain: HXB2 ; mutations: TAM1 (M41L D67N L210W T215Y) ; cells: MT-2 ; result: 2
CC(C)=CCN1c2cc(Cl)cc3[nH]c(=S)n(c23)C[C@@H]1C ; mutations: RT-L74V A98G ; cells: MT-4 ; result: 0.8
Cc1cn([C@H]2C[C@H](N=[N+]=[N-])[C@@H](CO)O2)c(=O)[nH]c1=O ; strain: NL4-3 ; mutations: RT-D67N K70R T215Y K219Q ; cells: CEM + CEM-SS ; result: 19.6
Cc1cn([C@H]2C[C@H](N=[N+]=[N-])[C@@H](CO)O2)c(=O)[nH]c1=O ; strain: NL4-3 ; mutations: DS-resistant ; result: 0.8
Cc1c(O)cccc1C(=O)N[C@@H](CSc1ccccc1)[C@H](O)CN1C[C@H]2CCCC[C@H]2C[C@H]1C(=O)NC(C)(C)C ; strain: NL4-3 ; mutations: INTG-G140S ; cells: MT-2 ; result: 2
Nc1nc(=O)n([C@@H]2CS[C@H](CO)O2)cc1F ; strain: 74V (RT-L74V) ; mutations: RT-L74V ; cells: HT4 + HT4 LacZ-1 ; result: 1.2
Nc1nc2c(ncn2[C@H]2CO[C@@H](CO)O2)c(=O)[nH]1 ; mutations: RT-K65R ; cells: MT-2 ; result: 5.06
CCN(c1nc(F)ccc1NC(C)(C)C)C1CCN(C(=O)c2cc3cc(NC(=O)N4CCN(C)CC4)ccc3[nH]2)CC1 ; strain: IIIB ; mutations: LPV-P31 lopinavir-resistant mutant ; result: 39.6
CC(=O)c1ccc(C)cc1NC(C(N)=O)c1c(Cl)cccc1Cl ; strain: UC781-RS(RT-Y181C ; mutations: RT-Y181C ; result: >100
CC(C)C[C@@H]1[C@H](O)[C@@H](O)[C@@H](CC(C)C)N(Cc2cccc(C(=O)Nc3nc4ccccc4[nH]3)c2)C(=O)N1Cc1cccc(C(=O)Nc2nc3ccccc3[nH]2)c1 ; strain: RF ; mutations: PR-I84V V82F ; cells: MT-2 ; setting: 3 d ; result: 0.203
Nc1ccn([C@H]2CC[C@@H](CO)O2)c(=O)n1 ; strain: Clinical isolate ; mutations: RT-I50V K70R I135V T215Y ; cells: MT-4 ; setting: clinical isolate ; result: 1.875
Fc1cccc(F)c1C1SCc2nc3ccccc3n21 ; strain: UC781-RS(RT-Y181C ; mutations: RT-Y181C ; result: >20.3
CC(C)=CCC[C@]1(C)C=Cc2c(ccc3c2C(=O)C(O)=C(C2=C(C4=C(O)C(=O)c5c(ccc6c5C=C[C@@](C)(CCC=C(C)C)O6)C4=O)C(=O)c4c(ccc5c4C=C[C@@](C)(CCC=C(C)C)O5)C2=O)C3=O)O1 ; strain: RF ; mutations: gp120 V64A G145E N315K Q374P gp41 P731L T762I L763R W766stop ; cells: CEM + MT-4 ; result: >1
CC(C)Oc1ccc(Cc2ccccc2)cc1C(=O)CC(=O)C(=O)O ; mutations: INTG-V151I ; result: 5
CC(=O)Oc1ccc(/C=C/C(=O)O[C@@H](C(=O)O)[C@@H](OC(=O)/C=C/c2ccc(OC(C)=O)c(OC(C)=O)c2)C(=O)O)cc1OC(C)=O ; strain: NL4-3 ; mutations: AR117-resistant ; cells: MT-4 ; result: >9.25
CC(C)=CCN1Cc2cc(Cl)cc3[nH]c(=S)n(c23)C[C@@H]1C ; strain: BCF11 ; mutations: RT-A98G K103R ; cells: PBMC ; result: >312.5
CN(C)C(=O)c1cnnn1[C@@H]1O[C@H](CO[Si](C)(C)C(C)(C)C)C2(OS(=O)(=O)C=C2N)[C@H]1O[Si](C)(C)C(C)(C)C ; strain: IIIB ; mutations: RT-E138K ; cells: CEM ; result: 10
Nc1ccn([C@H]2O[C@@H](CO)C=C2F)c(=O)n1 ; strain: 3TC-resistant (RT M184V) ; mutations: RT-M184V ; cells: PBMC ; result: >100
CC(C)Nc1cccnc1N1CCN(C(=O)c2cc3cc(NS(C)(=O)=O)ccc3[nH]2)CC1 ; strain: A17 ; mutations: RT-K103N Y181C ; cells: PBMC ; result: >11100
O=c1[nH]cnc2c1ncn2[C@H]1CC[C@@H](CO)O1 ; strain: HXB2D (RT D67N K70R T215Y) ; mutations: RT-D67N K70R T215Y ; cells: MT-2 ; result: 1.45
O=C1O[C@H]2[C@@H]3OC(=O)c4cc(O)c(O)c(O)c4-c4c(cc(O)c(O)c4O)C(=O)OC[C@H]2O[C@@H](OC(=O)c2cc(O)c(O)c(O)c2)[C@@H]3OC(=O)c2cc(O)c(O)c3c2[C@@H]2C1=CC(=O)[C@](O)(O3)C2(O)O ; strain: NNRTI-resistant (RT Y188H) ARP1011 ; mutations: RT-Y188H ; cells: MAGI ; result: 1.2
O=c1[nH]cnc2c1ncn2[C@H]1CC[C@@H](CO)O1 ; strain: BCF08 ; mutations: RT-A98G Y181C ; cells: PBMC ; result: 0.235
CCc1c(Sc2ccccn2)n(COCc2ccccc2)c(=O)[nH]c1=O ; strain: UC781-RS(RT-Y181C ; mutations: RT-Y181C ; result: 155
Nc1cccc(CN2C(=O)N(Cc3ccc4[nH]nc(-c5ccc(F)cc5)c4c3)[C@H](Cc3ccccc3)[C@H](O)[C@@H](O)[C@H]2Cc2ccccc2)c1 ; strain: Ritonavir-resistant (PR M46I L63P A71V V82F I84V) ; mutations: PR-M46I L63P A71V V82F I84V ; cells: MT-2 ; result: >1.11
COC(=O)N[C@H](C(=O)N[C@@H](Cc1ccccc1)[C@@H](O)CN(Cc1ccc(-c2ccccn2)cc1)NC(=O)[C@@H](NC(=O)OC)C(C)(C)C)C(C)(C)C ; strain: NL4-3 ; mutations: PR-L10I G48V L90M ; cells: MT-2 ; result: 1.27

For reference, 7 entries again:

SMILES | strain | mutations | cells | setting | result
O=c1[nH]cnc2c1ncn2[C@H]1CC[C@@H](CO)O1 | HXB2D (RT D67N K70R T215Y) | RT-D67N K70R T215Y | MT-2 |  | 1.45
c1cc(CN2CCCNCCNCCCNCC2)ccc1CN1CCCNCCNCCCNCC1 | NL4-3 | DS-resistant |  |  | 1
Nc1ccn([C@H]2O[C@@H](CO)C=C2F)c(=O)n1 | 3TC-resistant (RT M184V) | RT-M184V | PBMC |  | >100
CC(C)=CCC[C@]1(C)C=Cc2c(ccc3c2C(=O)C(O)=C(C2=C(C4=C(O)C(=O)c5c(ccc6c5C=C[C@@](C)(CCC=C(C)C)O6)C4=O)C(=O)c4c(ccc5c4C=C[C@@](C)(CCC=C(C)C)O5)C2=O)C3=O)O1 | RF | gp120 V64A G145E N315K Q374P gp41 P731L T762I L763R W766stop | CEM + MT-4 |  | >1
O=c1[nH]cnc2c1ncn2[C@H]1CC[C@@H](CO)O1 | BCF08 | RT-A98G Y181C | PBMC |  | 0.235
Fc1cccc(F)c1C1SCc2nc3ccccc3n21 | UC781-RS(RT-Y181C | RT-Y181C |  |  | >20.3
CCN(c1nc(F)ccc1NC(C)(C)C)C1CCN(C(=O)c2cc3cc(NC(=O)N4CCN(C)CC4)ccc3[nH]2)CC1 | IIIB | LPV-P31 lopinavir-resistant mutant |  |  | 39.6